## Results of single-concentration screens

The values are deposited in ChEMBL (CHEMBL3988442, “University of Dundee, Small-Polar-MMV Screening Library” (2021)).

Mtb cholesterol medium: 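Growth of Mycobacterium tuberculosis over 4 days (cholesterol / DPPC medium with tyloxapol); the read-out is not stated. Tested at 500 µM. Direction is inferred from retests: higher values go with more growth inhibition. About 18,000 compounds were tested under these conditions; 5% (about 900) showed 50% or more at least once.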
Mtb glucose medium: 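Whole-cell growth test on Mycobacterium tuberculosis, read after 3 days in glucose-containing 7H9 medium; the read-out is not stated. Tested at 500 µM. Higher reads as more growth inhibition (inferred: compounds with an IC50 in retests scored well above the rest). About 18,000 compounds were tested under these conditions; 7.9% (about 1,400) showed 50% or more at least once.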

The filed quantity is “Percent Effect” (%). The controls that fix the scale are not given in the record; negative values are as filed. This is part of a subset picked to be rich in strong results. A dash means the value is not listed here; it may have been measured.

Compound,Mtb cholesterol medium,Mtb glucose medium
COCC(C)(NCc1ccc(F)cc1)C(=O)OC (centres unmarked),-,5.572
NCc1nnc2n1CCC2,-,5.658
CC(=O)Nc1ccc(CNC(C)C(C)C)cc1 (centres unmarked),-,5.682
Cc1noc(C)c1CN1CCCC(C(N)=O)C1 (centres unmarked),0.4698,-
NCC(N)c1ccc2ncccc2c1 (centres unmarked),11.67,-
CN(CCn1cccn1)C(=O)c1ccc(CN)cc1,-,7.515
CN(C)C(C)(C)CNC(=O)c1c(O)cccc1F,-5.453,-0.4109
CNC(=O)C(C)(C)CNC(=O)Nc1ncc(C)cc1Br,-,-4.773
CC1=NOC(C(=O)NCCc2nc3c(s2)CCCC3)C1 (centres unmarked),-,54.66
Cc1cnc(C)c(NC(C)Cn2cncn2)n1 (centres unmarked),-,-4.228
O=C1CCC2(CNC(=O)c3ccco3)CCCC=C2N1 (centres unmarked),-,-10.24
N#Cc1ccc(NCCOc2ccccc2)nc1,60.82,61.17
C[C@@]1(O)CCN(C(=O)CCc2cn[nH]c2)C[C@@H]1O,-,5.87
CN(Cc1ccco1)C(=O)c1cccc(C#N)c1,53.19,49.76
N#CCCn1cc(C(N)=O)cn1,-18.01,-
N#Cc1ccccc1CN1CCCC1CO (centres unmarked),78.05,67.98
CCc1ccc(O)c(C(=O)NCC2CCS(=O)(=O)C2)c1 (centres unmarked),-,42.91
COC(C)c1cccc(NCCCS(C)(=O)=O)c1 (centres unmarked),13,-
CNS(=O)(=O)c1ccc(NCc2ccco2)cc1OC,85.58,67.25
O=C(NCC1CCN(C2CC2)C1)Nc1nccs1 (centres unmarked),-,38.62
Cc1ccccc1C(=O)N[C@@H]1CN(C)C[C@H]1CN(C)C,-,21.8
COc1cccc(CN2CCCS(=O)(=O)CC2)c1,-2.709,17.39
NCc1ccc(N)nc1,-,8.193
NC1Cc2ccccc21 (centres unmarked),-2.726,10.71
CC(N)C(=O)Nc1ccc(-n2nccn2)cc1 (centres unmarked),-,36.62
Nc1nnc(SCCc2ccccc2)[nH]1,26.88,28.68
CN(C)c1ccc(CN)cc1F,-,18.48
NC(c1ccc2c(c1)OCCO2)C1CC1 (centres unmarked),6.069,12.18
NC(=O)[C@@H]1CCCN1,-,3.771
NC(=O)CN1CCN(c2cccc(Cl)c2)CC1,7.368,34.03
CN1C(=O)C[C@@H](C(N)=O)[C@@H]1c1cccc(Cl)c1,-,-0.8025
CN(C)c1ncccc1C(=O)NCC[C@@H]1CCCN1,-,0.6256
CC(C)(N)c1ncc[nH]1,-,5.985
O=C(CN1CCC(O)CC1)N1CCCCCCC1,-,10.63
COC1(c2noc(-c3cnccn3)n2)CCC1,-,18.83
CN1CCN(C(=O)CC2Cc3ccccc3C2)CC1,60.88,70.1
COCCC(=O)NCC(OC)c1cccc(Cl)c1 (centres unmarked),3.871,-
c1nnc(C2COCCN2)o1 (centres unmarked),-,-8.387
Cc1nnc(SCCCNC(=O)c2nn(C)cc2Cl)s1,-,41.83
NCc1cc(Oc2ccc(Cl)cc2)ccn1,-7.693,-2.565
CN1CCCN(C(=O)Nc2ccc(Cl)cc2)CC1,7.595,-
Clc1ccc(OC2CCCNC2)nc1 (centres unmarked),-,31.31
O=C(CSc1cnn[nH]1)OCc1ccccc1,18.08,53.48
CCn1cncc1CN1CCCC(NC(C)=O)C1 (centres unmarked),-,-2.094
COC(=O)C1CC(c2ccccc2)=NO1 (centres unmarked),84.89,-
CC(C)(C)C(=O)COc1ccccc1C(N)=O,-,25.54
Cn1cncc1CCNC(=O)c1ccc(Cl)cn1,25.83,40.92
CCNC(=O)Cn1ccc(N)n1,-,9.625
NCc1ccnc(N)c1,-,17.81
Cc1ccc2c(c1)nc(CO)n2C,-10.84,-1.081
COc1cccc(C2(F)CCNCC2)c1,17.23,36.95
CCn1ncc2c1CCCC2N (centres unmarked),-,-4.771

For reference, 3 entries once more:

Compound,Mtb cholesterol medium,Mtb glucose medium
Clc1ccc(OC2CCCNC2)nc1 (centres unmarked),-,31.31
NCc1ccc(N)nc1,-,8.193
CN(CCn1cccn1)C(=O)c1ccc(CN)cc1,-,7.515